Measurements taken from US20230365639A1, “DEFENSIN FRAGMENT DERIVED LIPOPEPTIDES FOR TREATMENT OF DRUG-RESISTANT MICROORGANISMS” (priority 2020, published 2023).
“Also recorded” adds a separate entry of the source.

System: fecal microbiota
Assay: Microbiome analysis following administration of Pams (16S rRNA sequencing)
Format: in vivo, mice

Substance: Pam2-Glc-Suc-RGKAKCCK [Pam-1]
- abundance of bacterial genera (oral 125 or 250 μg): did not affect; also recorded: neither Pam-1 nor Pam-3 treatment affected the abundance of bacterial genera
- changes in the microbiota between before and after samples (beta diversity, weighted Unifrac Distances) (oral 125 or 250 μg, feces before and 24 hours after, vs PBS): similar
- number of detected species and complexity (oral 125 or 250 μg, vs PBS): remained comparable
- overall effect on microbiota (composition, community structure, diversity) (oral, healthy chow-fed mice): does not affect the overall community structure or diversity; also recorded: neither Pam-1 nor Pam-3 treatment had any appreciable effects
